PubChem BioAssay AID1259414 – Drosophila RNAi Screening Center | 2018
Test: 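Host factors increasing or decreasing Wolbachia levels in cultured fly cells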 (primary screen). Cell system: Drosophila JW18 cells infected with Wolbachia. Reagents: long dsRNA against Drosophila genes, 0.25 µg dsRNA per well of a 384-well plate. Timing: 5 days. Treatment: cells persistently infected with Wolbachia before knock-down; no added drug. Detection: 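Automated imaging of bacterial rRNA staining divided by host cell count, reported as plate-normalised robust z-score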. Scale: Wolbachia per cell robust z: higher = more Wolbachia per host cell than the plate typical. Hit rule: 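Hit when robust z is 1.5 or more, or -1.5 or less, in at least two of three replicates; excludes dsRNAs with several or no targets, genes not expressed in JW18 and well A1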.
The screen tested about 24,000 reagents; this is a random part of those with a known target gene and a result. Of all reagents, about 1,210 (5%) got an active call. 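Inactive calls also include excluded dsRNAs with several or no targets, genes unexpressed in JW18, and well A1, regardless of score.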 Reagents against one gene are numbered here. Names joined by + are all predicted targets of the reagent. No sequences are given here.

| Target gene | reagent no. | Wolbachia per cell robust z, rep 1 | Wolbachia per cell robust z, rep 2 | Wolbachia per cell robust z, rep 3 | Call |
| --- | --- | --- | --- | --- | --- |
| CG13063 | 1 | -0.0783 | -0.304 | 1.38 | inactive |
| CG13063 | 2 | 0.712 | 0.792 | 0.761 | inactive |
| CG33632 | 1 | 1.25 | -3.19 | 0.617 | inactive |
| Ubc6 (Ubiquitin conjugating enzyme 6) | 1 | 0.188 | -0.16 | 0.771 | inactive |
| Ubc6 (Ubiquitin conjugating enzyme 6) | 2 | -1.4 | -0.774 | -0.848 | inactive |
| CG7058 | 1 | -0.162 | -0.521 | -0.0108 | inactive |
| CG7058 | 2 | 1.25 | 0.33 | 0.0318 | inactive |
| 140up (upstream of RpII140) | 1 | -3.28 | -2.64 | -0.308 | active |
| 140up (upstream of RpII140) | 2 | -1.15 | 0.0981 | 1.01 | inactive |
| CG43367 + asRNA:CR32252 | 1 | -0.255 | -1.75 | -1.42 | inactive |
| Obp83b (Odorant-binding protein 83b) | 1 | 0.113 | -0.977 | -2.25 | inactive |
| Obp83b (Odorant-binding protein 83b) | 2 | 0.0188 | -0.448 | 0.251 | inactive |
| Coa8 (Cytochrome c oxidase assembly factor 8) | 1 | -0.571 | -3.01 | -0.546 | inactive |
| Nufip | 1 | 0.362 | 0.593 | 0.538 | inactive |
| dnd (dead end) | 1 | 0.332 | -0.617 | 0.438 | inactive |
| Cox17 (Cytochrome c oxidase copper chaperone COX17) | 1 | 0.247 | -3.09 | 0.0616 | inactive |
| knk (knickkopf) | 1 | -4.73 | 0.895 | -5.67 | inactive |
| Srg2 (Sting-regulated gene 2) | 1 | 1.26 | 0.407 | 0.953 | inactive |
| Srg2 (Sting-regulated gene 2) | 2 | 0.581 | 0.653 | 0.325 | inactive |
| Npc2h (Niemann-Pick type C-2h) | 1 | 0.76 | 0.273 | 0.138 | inactive |
| Saf-B (Scaffold attachment factor B) | 1 | -0.837 | 0.126 | -0.436 | inactive |
| Saf-B (Scaffold attachment factor B) | 2 | -2.4 | -2.53 | -5.48 | active |
| CG12347 | 1 | 1.02 | 0.599 | 1.2 | inactive |
| CG7888 | 1 | 0.0446 | 1.05 | -2.96 | inactive |
| CG5199 | 1 | 0.305 | 0.467 | -0.74 | inactive |
| CG5276 | 1 | -0.0959 | -3.15 | -0.0147 | inactive |
| CG5276 | 2 | -0.547 | 1.06 | 0.632 | inactive |
| CG8087 | 1 | -0.214 | 1.37 | 0.234 | inactive |
| CG8087 | 2 | -0.223 | 0.911 | -0.509 | inactive |

Laid out differently: entries from further up
CG8087 #1
- Wolbachia per cell robust z, rep 1: -0.214
- Wolbachia per cell robust z, rep 2: 1.37
- Wolbachia per cell robust z, rep 3: 0.234
- Call: inactive

CG8087 #2
- Wolbachia per cell robust z, rep 1: -0.223
- Wolbachia per cell robust z, rep 2: 0.911
- Wolbachia per cell robust z, rep 3: -0.509
- Call: inactive
